Compound potency records, mixed from different reports. Data source: NIAID ChemDB in PubChem.

All rows: whole-cell or culture tests; organism: Mycobacterium tuberculosis

MIC50, MIC90 and the like: level of inhibition, or share of isolates inhibited. MIC bound comes from a single tested concentration. ECn is the concentration giving n% inhibition of infection, replication or growth. Blank or dashed fields: not listed here. Inhibition is in % at the dose shown (toxicity tests: loss of growth or viability). Rows are shuffled and stem from different studies.

compound | strain or isolate | read by | conditions | dose | read-out | changes | value
CC1(C)C(=NNC(=O)C[N+](C)(C)C)C(C)(C)C1=NNC(=O)C[N+](C)(C)C.[Cl-] | H37Rv | BACTEC | - | 12.5 µg/mL | inhibition | - | 10%
C=C(C)[C@@H]1CC[C@]2(CO)CC[C@]3(C)[C@H](CC[C@@H]4[C@@]5(C)CC[C@H](O)C(C)(C)[C@@H]5CC[C@]43C)[C@@H]12 | H37Rv | - | - | - | MIC | - | 32 µM
O=C1c2cc(Br)ccc2OP(=O)(c2ccccc2)N1c1ccc(C(F)(F)F)cc1 | 234/2005 | - | 21 d | - | MIC | - | 1 µM
Cc1c[nH]c2c1C13CC1CN(C(=O)c1cc4cc(NC(=O)c5cc6ccccc6o5)ccc4[nH]1)C3=CC2=O | H37Rv | BACTEC | - | - | MIC bound | - | ≤6.25 µg/mL
CN(C)C/C=C(\c1ccc(N)cc1)c1ccc(-c2ccc(Br)cc2)cc1 | H37Ra | - | - | - | MIC | - | 19.6 µg/mL
CO[C@H]1/C=C/O[C@@]2(C)Oc3c(C)c(O)c4c(O)c(c(/C=N/Nc5ccccc5)c(O)c4c3C2=O)NC(=O)/C(C)=C\C=C\[C@H](C)[C@H](O)[C@@H](C)[C@@H](O)[C@@H](C)[C@H](OC(C)=O)[C@@H]1C | H37Rv | - | - | - | MIC | - | 2 µg/mL
CN(C)C/C=C(/c1ccccc1)c1ccc(-c2ccc(Br)cc2)cc1 | ALI 3415 | - | - | - | MIC | - | 40 µg/mL
CCC1C[N+]2=C(c3cc(OC)c(OC)cc3CC2)c2c1cc1n2CCc2cc(OC)c(OC)cc2-1 | RMP-R | - | - | - | MIC | - | >12.8 µg/mL
NCC[C@H](O)C(=O)N[C@@H]1C[C@H](N)[C@@H](O[C@H]2O[C@H](CN)[C@@H](O)[C@H](O)[C@H]2O)[C@H](O)[C@H]1O[C@H]1O[C@H](CO)[C@@H](O)[C@H](N)[C@H]1O | TN758 (P) | - | - | - | MIC | - | 8 µg/mL
O=C(Nc1ccc(Br)cc1)c1cc(Cl)ccc1OP(=O)(c1ccccc1)c1ccccc1 | My 331/88 | - | 14 d | - | MIC | - | 4 µM
CO[C@H]1/C=C/O[C@@]2(C)Oc3c(C)c(O)c4c(O)c(c(C=Nc5ccccc5C)c(O)c4c3C2=O)NC(=O)/C(C)=C\C=C\[C@H](C)[C@H](O)[C@@H](C)[C@@H](O)[C@@H](C)[C@H](OC(C)=O)[C@@H]1C | H37Rv | - | - | - | MIC | - | 5 µg/mL
CCCCCCCCS(=O)(=O)CC(N)=O | 6T2709 | - | - | - | MIC | - | ≤6.25 µg/mL
C[C@@H]1CC[C@]2(C(=O)O)CC[C@]3(C)C(=CC[C@@H]4[C@@]5(C)CC[C@H](O)C(C)(C)[C@@H]5CC[C@]43C)[C@@H]2[C@]1(C)O | H37Rv | - | - | - | MIC | - | 64 µM
CO[C@H]1/C=C/O[C@@]2(C)Oc3c(C)c(O)c4c(O)c(c(C=Nc5ccc(Cl)cc5)c(O)c4c3C2=O)NC(=O)/C(C)=C\C=C\[C@H](C)[C@H](O)[C@@H](C)[C@@H](O)[C@@H](C)[C@H](OC(C)=O)[C@@H]1C | H37Rv | - | - | - | MIC | - | >5 µg/mL
Cc1ccc(C)c(NC2=CC(=O)C(=O)c3ccccc32)c1 | H37Rv | resazurin | - | 6.25 µg/mL | inhibition | - | 100%
CC(C)N=c1cc2n(-c3ccc(Cl)cc3)c3ccccc3nc-2cc1Nc1ccc(Cl)cc1 | Praha 131 | - | - | - | MIC | - | 0.26 µM
CC(C)C[C@@H]1NC(=O)[C@H](Cc2c[nH]c3ccccc23)NC(=O)[C@H](CCCCN)NC(=O)[C@H](CC(N)=O)NC(=O)[C@H](C(C)C)NC(=O)[C@@H](CC(C)C)NC1=O | HN353 | turbidity | - | - | EC50 | - | >30 µM
C/C=C/c1ccc2c(c1)[C@@H](C)[C@H](c1ccc(OC)cc1)O2 | Clinical isolate 73-A | resazurin / absorbance | - | - | MIC | isoniazid rifampicin pyrazinamide resistant | 3.9 µg/mL
CO[C@H]1/C=C/O[C@@]2(C)Oc3c(C)c(O)c4c(O)c(c(/C=N/NCCO)c(O)c4c3C2=O)NC(=O)/C(C)=C\C=C\[C@H](C)[C@H](O)[C@@H](C)[C@@H](O)[C@@H](C)[C@H](OC(C)=O)[C@@H]1C | H37Rv | - | - | - | MIC | - | 1 µg/mL
CCCCCCCCCCSc1nc(N)nc2c1ncn2CC(=O)N[C@@H](C)C(=O)OC | H37Rv | BACTEC | - | 6.25 µg/mL | inhibition | - | 0%
CC(=O)Nc1ccc(S(=O)(=O)N2c3ccccc3[S@](=O)c3cc([N+](=O)[O-])ccc32)cc1 | H37Rv | BACTEC | - | 12.5 µg/mL | inhibition | - | 7%
CC(C)C[C@@H]1NC(=O)[C@H](Cc2c[nH]c3ccccc23)NC(=O)[C@@H](CCCN=C(N)N)NC(=O)[C@H](CC(N)=O)NC(=O)[C@H](C(C)C)NC(=O)[C@@H](CC(C)C)NC1=O | H37Ra | turbidity | - | - | MIC90 | - | 0.33 µM
O=C(Nc1ccc(C(F)(F)F)cc1)c1cc(Cl)ccc1OP(=O)(c1ccccc1)c1ccccc1 | 7357/1998 | - | 14 d | - | MIC | - | 1 µM
C=C1C(=O)O[C@@H]2[C@H]3C(C)=CCC[C@]3(C)CC[C@@H]12 | H37Rv | - | - | - | MIC | - | 64 µg/mL
O=C(c1ccccc1)c1cc(Cl)ccc1NC(=O)C(Cl)(Cl)Cl | H37Rv | resazurin | - | 6.25 µg/mL | inhibition | - | 40%
Cc1ccc(Cn2nnc(-c3cc([N+](=O)[O-])cc([N+](=O)[O-])c3)n2)cc1 | 8666/2010 | - | 14 d | - | MIC | - | 0.125 µM
CCCc1ccc2oc(-c3ccc(O)c(OC)c3)c(C)c2c1 | Clinical isolate 49 | resazurin / absorbance | - | - | MIC | - | 3.9 µg/mL
CC[C@H]1OC(=O)[C@H](C)[C@@H](O[C@H]2C[C@@](C)(OC)[C@@H](O)[C@H](C)O2)[C@H](C)[C@@H](O[C@@H]2O[C@H](C)C[C@H](N(C)C)[C@H]2O)[C@](C)(OC)C[C@@H](C)C(=O)[C@H](C)[C@@H](O)[C@]1(C)O | 30 strains | - | - | - | MIC50 | - | >10 µg/mL
CCCCCCCC(=O)N1[C@H]2[C@@H]1CN1C3=C(C(=O)C(N)=C(C)C3=O)[C@@H](COC(N)=O)[C@@]21OC | INH-r | - | - | - | MIC | - | 0.4 µg/mL
O=C(Nc1ccc(C(F)(F)F)cc1)c1cc(Br)ccc1OP(=O)(OCc1ccccc1)OCc1ccccc1 | My 331/88 | - | 7 d | - | MIC | - | 8 µM
CC(C)(C)n1c(=O)n(C(=O)C(Cl)(Cl)Cl)n(C(=O)C(Cl)(Cl)Cl)c1=O | H37Rv | BACTEC | - | - | MIC bound | - | >12.5 µg/mL
NNC(=O)c1ccncc1 | H37Ra | turbidity | - | - | EC50 | - | 0.05 µM
N[C@@H]1CONC1=O | Isolate TN6515 | - | - | - | MIC | - | 14 µg/mL
CCCCCCCCCCSc1nc(N)nc2c1ncn2CC(=O)N[C@@H](Cc1ccccc1)C(=O)OC | H37Rv | BACTEC | - | 6.25 µg/mL | inhibition | - | 0%
O=C(Nc1ccc(Cl)cc1Cl)c1cc2nc3ccccc3c(=O)n2c2ccccc12 | H37Rv | resazurin | - | 6.25 µg/mL | inhibition | - | 4%
CCCCCCCCCCOc1nc(N)nc2c1ncn2CC(=O)N[C@@H](C)C(=O)OC | H37Rv | BACTEC | - | 6.25 µg/mL | inhibition | - | 0%
CN(C)C/C=C(\c1ccc(I)cc1)c1ccc(-c2ccc(Br)cc2)cc1 | ALI 536 | - | - | - | MIC | - | ≤4 µg/mL
O=C(Nc1ccc(C(F)(F)F)cc1)c1cc(Cl)ccc1OP(=O)(OCc1ccccc1)OCc1ccccc1 | My 331/88 | - | 7 d | - | MIC | - | 2 µM
C=C1CCC[C@@]2(C)CC[C@@H](/C(C)=C/C=C/C(C)(C)O)C[C@H]12 | H37Rv | BACTEC | - | - | MIC bound | - | >12.5 µg/mL
CN1CCN(c2cc3c(cc2F)c(=O)c(C(=O)O)cn3-c2ccc(F)cc2)CC1 | 27 strains | - | - | - | MIC90 | - | 8 µg/mL
COC(=O)c1cc(NC(=O)O/N=C/c2cccnc2)cc(C(=O)OC)c1 | H37Rv | BACTEC | - | 12.5 µg/mL | inhibition | - | -36%
CCC1CN(c2c(F)cc3c(=O)c(C(=O)O)cn(C4CC4)c3c2OC)CCN1 | Isolate TN5704 | - | - | - | MIC | - | 0.2 µg/mL
O=C1c2cc(Cl)ccc2OP(=O)(c2ccccc2)N1c1ccc(C(F)(F)F)cc1 | My 331/88 | - | 7 d | - | MIC | - | 0.5 µM
CN(C)CC=C(c1ccccc1)c1ccc(-c2ccc(Br)cc2)cc1 | ALI 552 | - | - | - | MIC | - | 10 µg/mL
CO[C@H]1/C=C/O[C@@]2(C)Oc3c(C)c(O)c4c(=O)c(c5oc6cc(N7CCN(CC(C)C)CC7)cc(=O)c6nc5c4c3=C2O)NC(=O)/C(C)=C\C=C\[C@H](C)[C@H](O)[C@@H](C)[C@@H](O)[C@@H](C)[C@H](OC(C)=O)[C@@H]1C | TN805 | - | - | - | MIC | - | >32 µg/mL
Cc1ccc(Oc2nc(N)nc3nc[nH]c23)cc1 | H37Rv | BACTEC | - | 6.25 µg/mL | inhibition | - | 0%
C#CCNCCCn1c(=O)nc2n(-c3ccccc3)c3ccccc3nc-2c1=O | H37Rv | BACTEC | - | - | MIC bound | - | >12.5 µg/mL
CC(C)CCC[C@@H](C)CCC[C@@H](C)CCCC(C)CCO | H37Rv | - | - | - | MIC | - | 2 µg/mL
O=C1OCc2c1cc1ccc(O)c(OC3OC(CO)C(O)C(O)C3O)c1c2-c1ccc2c(c1)OCO2 | H37Rv | BACTEC | - | - | MIC | - | ≥12.5 µg/mL
C/C=C/c1ccc2oc(-c3ccc(O)c(OC)c3)c(C)c2c1 | Clinical isolate 73-A | resazurin / absorbance | - | - | MIC | isoniazid rifampicin pyrazinamide resistant | 1.9 µg/mL
N[C@@H]1CONC1=O | 592 strains | agar | - | 30 µg/mL | inhibition | - | 96%
C=C1CC[C@@H](O)[C@]2(C)CC[C@@H](C(C)CO)[C@H](O)[C@@H]12 | H37Rv | - | - | - | MIC | - | >128 µg/mL
CO[C@H]1/C=C/O[C@@]2(C)Oc3c(C)c(O)c4c(O)c(c5c(c4c3C2=O)NC2(CCN(CC(C)C)CC2)N=5)=NC(=O)/C(C)=C\C=C\[C@H](C)[C@H](O)[C@@H](C)[C@@H](O)[C@@H](C)[C@H](OC(C)=O)[C@@H]1C | Strain 102-117 (S531L) | - | - | - | MIC | - | 12 µg/mL
CCN(CC)CCNc1ccc(CO)c2sc3ccccc3c(=O)c12 | H37Rv | BACTEC | - | 12.5 µg/mL | inhibition | - | 100%
CN(C)C/C=C(/c1ccc(Br)cc1)c1ccc(-c2ccc(Br)cc2)cc1 | ALI 3415 | - | - | - | MIC | - | 17 µg/mL
O=S(=O)(SC1=NCCN1)c1ccc2ccccc2c1 | H37Rv | resazurin | - | 6.25 µg/mL | inhibition | - | -40%
CC(C)C[C@@H]1NC(=O)[C@H](Cc2c[nH]c3ccccc23)NC(=O)[C@@H](CCCN)NC(=O)[C@H](CC(N)=O)NC(=O)[C@H](C(C)C)NC(=O)[C@@H](CC(C)C)NC1=O | H37Rv | turbidity | - | - | EC50 | - | 2.12 µM
CCOC(=O)C1=NN(c2ccccc2)C(=O)C1N=Nc1ccc(S(=O)(=O)Nc2onc(C)c2C)cc1 | H37Rv | BACTEC | - | - | MIC | - | ≥12.8 µg/mL
CC(C)C[C@@H]1NC(=O)[C@H](Cc2c[nH]c3ccccc23)NC(=O)[C@@H](CCCCN)NC(=O)[C@H](CC(N)=O)NC(=O)[C@H](C(C)C)NC(=O)[C@@H](CC(C)C)NC1=O | HN878 | turbidity | - | - | EC50 | - | 0.41 µM
CN(C)CC=C(c1ccc(Br)cc1)c1ccc(-c2ccc(Br)cc2)cc1 | ALI 544 | - | - | - | MIC | - | 17 µg/mL
CO[C@H]1/C=C/O[C@@]2(C)Oc3c(C)c(O)c4c(O)c(c(/C=N/N(C)CCN(C)C)c(O)c4c3C2=O)NC(=O)/C(C)=C\C=C\[C@H](C)[C@H](O)[C@@H](C)[C@@H](O)[C@@H](C)[C@H](OC(C)=O)[C@@H]1C | H37Rv | - | - | - | MIC | - | 0.5 µg/mL
CCCCOc1ccc(/C=N/NC(=O)CNC(=O)Nc2cccc([N+](=O)[O-])c2)cc1 | H37Rv | BACTEC | - | - | MIC | - | >12.5 µg/mL
N#Cc1c(Nc2ccccc2)[n+]([O-])c2ccc(Cl)cc2[n+]1[O-] | H37Rv | - | - | - | MIC | - | <12.5 µg/mL
O=C(O)CCc1nc2c(n1Cc1ccccc1)C(=O)c1ccccc1C2=O | H37Rv | BACTEC | - | 12.5 µg/mL | inhibition | - | 0%
CN[C@@H]1[C@H](O[C@H]2[C@H](O[C@H]3[C@H](O)[C@@H](O)[C@H](N=C(N)N)[C@@H](O)[C@@H]3N=C(N)N)O[C@@H](C)[C@]2(O)C=O)O[C@@H](CO)[C@H](O)[C@H]1O | 234/2005 | - | - | - | MIC | - | 27.5 µM
CC1C(O)CC23COC(=O)C2=CCCC3C1(C)CCC1=CC(=O)OC1 | H37Rv | BACTEC | - | 12.5 µg/mL | inhibition | - | 29%
Nc1ccc(C(=O)O)c(O)c1 | 35 strains | agar | - | 10 µg/mL | inhibition | - | 100%
CC[C@@H](O)C[C@@H]1O[C@@]2(CC[C@@H]1C)C[C@@H]1OC(=O)/C=C/[C@@](C)(O)[C@@H](O)[C@@H](C)[C@@H](O)[C@H](OC3CC(OC)C(O)C(C)O3)[C@@H](O)[C@](C)(O)CCC/C=C/[C@@H]3C[C@H](C)CO[C@@]3(O)C[C@H](O2)[C@H]1C | H37Rv | BACTEC | - | - | MIC bound | - | >12.5 µg/mL
CO[C@H]1/C=C/O[C@@]2(C)Oc3c(C)c(O)c4c(=O)c(c5oc6cc(N7CCN(CC(C)C)CC7)cc(=O)c6nc5c4c3=C2O)NC(=O)/C(C)=C\C=C\[C@H](C)[C@H](O)[C@@H](C)[C@@H](O)[C@@H](C)[C@H](OC(C)=O)[C@@H]1C | H37Rv | - | - | - | MBC | - | 0.016 µg/mL